Reference: PubChem BioAssay AID720580 (National Center for Advancing Translational Sciences (NCATS), 2013)
The list shows a part of the results, in another mix than the full data. Records with an inconclusive call do not appear. The source made the active and inactive calls. Calls come from the whole dose curve; tested in A549 cells.

Experiment: qHTS for Stage-Specific Inhibitors of Vaccinia Orthopoxvirus: Venus Reporter Primary qHTS; note: nearly all actives have a fitted effect of over 30% in size
Settings: Vaccinia virus Venus reporter expression, fluorescence; series mostly up to 36.5 µM

Row | SMILES | activity change, negative = inhibition
1 | CCOC(=O)c1ccc(NP(C)(=O)Oc2cc(C)cc(C)c2)cc1 (stereo not given) | inactive
2 | Cc1cc(C)cc(OP(C)(=O)Nc2ccc(C)cc2C)c1 (stereo not given) | inactive
3 | Cc1cccc(OCC(=O)OC2CN3CCC2CC3)c1 (stereo not given) | inactive
4 | COc1ccccc1OP(C)(=O)Nc1cccc(Br)c1 (stereo not given) | inactive
5 | CS(=O)(=O)c1ccc(Cl)c(NC(=O)COC(=O)C(O)(c2ccccc2)c2ccccc2)c1 | inactive
6 | COc1cc(C(=O)NCC2(N3CCOCC3)CCCCC2)cc(Cl)c1OC(C)C | inactive
7 | O=[As](O)(O)c1cccnc1 | inactive
8 | O=C(OC1CN2CCC1CC2)c1ccc(Cl)cc1 (stereo not given) | inactive
9 | CCOP(=O)(Nc1cccc2ccccc12)OCC | inactive
10 | CCCOP(=S)(Nc1nc(N)cc(=O)[nH]1)OCCC | inactive
11 | Cc1ccc(C)c(NP(C)(=O)Oc2ccccc2)c1 (stereo not given) | inactive
12 | Nc1cccc2c([As](=O)(O)O)cccc12 | inactive
13 | CP(=O)(Nc1cccc(Br)c1)Oc1ccccc1 (stereo not given) | inactive
14 | Cc1cc(C)cc(OP(C)(=O)Nc2ccccn2)c1 (stereo not given) | inactive
15 | Nc1ccccc1[As](=O)(O)c1ccccc1 | inactive
16 | O=C(O)COc1ccc([As](=O)(O)O)cc1[N+](=O)[O-] | inactive
17 | CS(=O)(=O)c1cc([N+](=O)[O-])c2no[n+]([O-])c2c1 | inactive
18 | O=P(Nc1nccs1)(c1ccccc1)c1nc2ccccc2s1 (stereo not given) | inactive
19 | CCOP1(=S)c2c(C)nn(CCC#N)c2N=C(c2ccccc2F)N1C (stereo not given) | inactive
20 | CN(C(=O)Cc1ccc(Cl)c(Cl)c1)[C@H]1CC[C@@]2(CCCO2)C[C@@H]1N1CCCC1 | inactive
21 | CC1=NCCc2c1[nH]c1ccccc21.O=[N+]([O-])c1cc([N+](=O)[O-])c(O)c([N+](=O)[O-])c1 | inactive
22 | CCOP1(=S)c2c(C)nn(CCC#N)c2N=C(c2ccc(F)cc2)N1C (stereo not given) | inactive
23 | CN(C(=O)Cc1ccccc1)[C@@H]1CC[C@]2(CCCO2)C[C@H]1N1CCCC1 | inactive
24 | N#CCCN(C(=O)COC(=O)C(O)(c1ccccc1)c1ccccc1)c1ccc(F)cc1 | inactive
25 | NC(=O)Nc1ccc([As](=O)(O)O)cc1 | inactive
26 | CCCC1OP(=O)(Nc2ccccc2)OCC1CC (stereo not given) | inactive
27 | O=C(/C=C/c1ccccc1)OC1CN2CCC1CC2 (stereo not given) | inactive
28 | O=[N+]([O-])c1cc([N+](=O)[O-])c(Nc2nnnn2CCO)c([N+](=O)[O-])c1 | inactive
29 | CN(C)C1(CNC(=O)c2ccc(S(C)(=O)=O)cc2)CCCCC1 | inactive
30 | CC1=C2N=C(C=C3N=C(C(C)=C4[N-][C@@](C)([C@@H]5N=C1[C@](C)(CCC(=O)NC[C@@H](C)OP(=O)([O-])O[C@H]1[C@@H](O)[C@@H](n6cnc7cc(C)c(C)cc76)O[C@@H]1CO)[C@H]5CC(N)=O)[C@@](C)(CC(N)=O)[C@@H]4CCC(N)=O)[C@@](C)(CC(N)=O)[C@@H]3CCC(N)=O)C(C)(C)[C@@H]2CCC(N)=O.[C-]#N.[Co+3] | inactive
